{
  "source": "patent US6506555B1",
  "about": "“Use of HIV protease inhibiting compounds” (Institut National de la Sante et de la Recherche Medicale …, priority 1998, dated 2003)",
  "system": "HCV",
  "details": "105 patients with no detectable anti-HCV or anti-HBV antibodies",
  "data": [
    {"compound": "CC(C)c1nc(CN(C)C(=O)N[C@H](C(=O)N[C@@H](Cc2ccccc2)C[C@H](O)[C@H](Cc2ccccc2)NC(=O)OCc2cncs2)C(C)C)cs1", "note": "[ritonavir]", "values": [
      {"measurement": "patients with an increase in the ALAT concentrations, control population", "value": 11.4, "unit": "%"}
    ]}
  ]
}
